Measured values from several laboratories, pooled; numbers as filed in NIAID ChemDB.

Shared fields: growth or infection tests; species: HIV-1

Rows are shuffled and stem from different studies. Two numbers with a dash give a range or band. An empty or dashed field is not shown. ECn is the concentration giving n% inhibition of infection, replication or growth.

smiles,cells,measure,conditions,strain,changes,read by,result
COc1ccc(S(=O)(=O)N(CC(O)CN(Cc2ccccc2)C(=O)NC(C)(C)C)CC2CCCC2)cc1,CEM,EC50,-,IIIB,-,p24,<1 µM
Cc1ccc(-c2ccc3c(c2)C=C(C(=O)Nc2ccc(C[N+](C)(C)C4CCOCC4)cc2)CCC3)cc1,PBMC,EC50,-,Du368 CLADE C,-,p24,<1 µM
Nc1nc(=O)n([C@H]2C=C[C@@H](CO)O2)cc1F,MT-4,EC90,-,XM-M184V,RT-M184V,p24,2 µM
CC(C)CN(C[C@@H](O)[C@H](Cc1ccccc1)NC(=O)O[C@H]1CO[C@H]2OCC[C@H]21)S(=O)(=O)c1ccc2c(c1)OCO2,PHA-PBM,EC50,-,92UG029,-,p24,0.0005 µM
COc1ccc(S(=O)(=O)N(CC(C)C)C[C@@H](O)CCN(CC2CCCC2)S(=O)(=O)Cc2cnco2)cc1,CEM,EC50,-,IIIB,-,p24,<1 µM
CCN1c2ncc(CCOc3ccc(C(=O)O)c4c3CCC4)cc2C(=O)N(C)c2ccc(Cl)nc21,C8166,EC50,-,WT,-,p24,<0.1 µM
C[C@H]1[C@H](O)[C@@H](C)/C=C/C=C/C=C/C=C/C=C/C=C/C=C/[C@H](O[C@@H]2O[C@H](C)[C@@H](O)[C@H](N)[C@@H]2O)C[C@@H]2O[C@](O)(C[C@@H](O)C[C@@H](O)CC[C@H](O)[C@@H](O)C[C@@H](O)CC(=O)O[C@H]1C)C[C@H](O)[C@H]2C(=O)O,PBMC,EC90,-,92TH026 CLADE B R5 (NSI),-,p24 / RT activity,>25 µM
CC(C)C1=C2[C@H]3CC[C@@H]4[C@@]5(C)CC[C@H](OC(=O)CC(C)(C)C(=O)O)C(C)(C)[C@@H]5CC[C@@]4(C)[C@]3(C)CC[C@@]2(NC(=O)c2cnccn2)CC1=O,MT-2,EC50,30% human serum,IIIB,-,RT activity,<0.199 µM
Nc1ccn([C@H]2CC[C@@H](CO)O2)c(=O)n1,-,EC50,-,NL4-3,L204I,β-galactosidase,0.226 µM
Cc1nc2ccccc2c(-c2cc(F)c3c(c2C)CCCO3)c1[C@H](OC(C)(C)C)C(=O)O,MT-4,EC50,-,NL4-3,Y143C,luminescence,0.018 µM
COc1ccc(S(=O)(=O)N(CC(C)C)C[C@@H](O)CCN(CC2CCCC2)S(=O)(=O)c2cccnc2)cc1,CEM,EC90,-,IIIB,-,p24,1 µM
CCc1c(Sc2ccccc2)n(COCc2ccccc2)c(=O)[nH]c1=O,CEM,EC50,-,IIIB (TIBO 82150) (RT-L100I),RT-L100I,syncytia,0.02 µM
Cn1nnc(CN2CCn3c(nc(C(=O)NCc4ccc(F)cc4)c(O)c3=O)C2(C)C)n1,MT-4,EC95,-,-,-,p24,<1 µM
CCC(C)[C@@H](C(=O)N[C@@H](Cc1ccccc1)[C@H](O)CN(CC(C)C)S(=O)(=O)c1ccc(/C=N/O)cc1)N1CCN(Cc2cccc(C)n2)C1=O,MT-4,EC50,-,A17 (LPV-resistant),PR-L10F V32I M46I I47V Q68E I84V,cytopathic effect / MTT,0.007 µM
CC(C)C1=C2C3CCC4[C@@]5(C)CC[C@H](OC(=O)CC(C)(C)C(=O)O)C(C)(C)C5CC[C@@]4(C)[C@]3(C)CC[C@@]2(NC(=O)OCC2(C)CC2)CC1=O,MT-2,EC50,30% human serum,IIIB,-,RT activity,<0.199 µM
CC(c1cccc2ccccc12)n1c(=O)c(O)c2n(c1=O)CCN(Cc1ccc(F)cc1)C2=O,MT-4,EC95,-,-,-,p24,<10 µM
COCCOc1cc(Cl)ccc1C(=O)NC(C)(C)CNC(=O)C[C@@]12CC[C@]3(C)[C@H](CC[C@@H]4[C@@]5(C)CC[C@H](OC(=O)[C@H]6C[C@@H](C(=O)O)C6(C)C)C(C)(C)[C@@H]5CC[C@]43C)C1=C(C(C)C)C(=O)C2,MT-2,EC50,-,92HT599,-,p24 / ELISA,<1 µM
CC1c2nc(C(=O)NCc3ccc(F)cc3)c(O)c(=O)n2CCN1Cc1ccnn1C,MT-4,EC95,-,-,-,p24,<1 µM
Cc1nnc(CN(CCN(C)C)C[C@H](O)[C@@]23CC[C@]4(C)[C@H](CC[C@@H]5[C@@]6(C)CC[C@H](OC(=O)[C@H]7C[C@@H](C(=O)O)C7(C)C)C(C)(C)[C@@H]6CC[C@]54C)C2=C(C(C)C)C(=O)C3)o1,MT-2,EC50,-,92HT599,-,p24 / ELISA,<1 µM
CCC(C)[C@@H](C(=O)N[C@@H](Cc1ccccc1)[C@H](O)CN(CC(C)C)S(=O)(=O)c1ccc(/C=N/O)cc1)N1CCN(Cc2cccc(COC)n2)C1=O,MT-4,EC50,-,A17 (LPV-resistant),PR-L10F V32I M46I I47V Q68E I84V,cytopathic effect / MTT,0.003 µM
CC(C)C1=C2[C@H]3CC[C@@H]4[C@@]5(C)CC[C@H](OC(=O)[C@H]6C[C@@H](C(=O)O)C6(C)C)C(C)(C)[C@@H]5CC[C@@]4(C)[C@]3(C)CC[C@@]2([C@@H](O)CNCC(C)(C)NC(=O)c2cc(C(C)C)[nH]n2)CC1=O,MT-2,EC50,-,92HT599,-,p24 / ELISA,<1 µM
Nc1nc(NC2CC2)c2ncn([C@H]3C=C[C@@H](CO)C3)c2n1,MT-4,EC50,-,XM-T69SSS,RT-T69SSS L210W T215Y,p24,<32 µM
CCc1c(Sc2cc(C)cc(C)c2)n(COCc2ccccc2)c(=S)[nH]c1=O,CEM,EC50,-,IIIB,RT-Y181I,syncytia,0.24 µM
CC(C)CN(C[C@@H](O)[C@H](Cc1ccccc1)NC(=O)[C@H](C(C)C)N1CC(=O)N(Cc2ccccc2)C1=O)S(=O)(=O)c1ccc(/C=N/O)cc1,MT-4,EC50,-,A17 (LPV-resistant),PR-L10F V32I M46I I47V Q68E I84V,cytopathic effect / MTT,0.016 µM
CC(C)C1=C2[C@H]3CC[C@@H]4[C@@]5(C)CC[C@H](OC(=O)CC(C)(C)C(=O)O)C(C)(C)[C@@H]5CC[C@@]4(C)[C@]3(C)CC[C@@]2(NC(=O)NCc2ccnn2C)CC1=O,MT-2,EC50,30% human serum,IIIB,-,RT activity,<0.199 µM
Nc1ccn([C@@H]2C=C(F)[C@H](CO)O2)c(=O)n1,PBMC,EC50,-,BRU-184V,RT-M184V,RT activity,<82 µM
CNCCC1CN(Cc2ccc(F)cc2)C(=O)c2c(O)c(=O)n(C(C)C)c(=O)n21,MT-4,EC50,-,-,-,p24,<10 µM
CCOCn1c(Sc2ccccc2)c(C(C)C)c(=O)[nH]c1=S,CEM,EC50,-,IIIB (TIBO 82150) (RT-L100I),RT-L100I,syncytia,0.03 µM
COc1ccc(S(=O)(=O)N(CC(C)C)C[C@@H](O)[C@H](Cc2ccccc2)NC(=O)[C@H](C(C)C)N2CC(=O)N(Cc3ccccc3)C2=O)cc1,MT-4,EC50,-,A17 (LPV-resistant),PR-L10F V32I M46I I47V Q68E I84V,cytopathic effect / MTT,0.059 µM
Cc1cc(S(N)(=O)=O)ccc1NC(=O)COc1ccc(Cl)cc1C(=O)c1cc(F)cc(C(F)(F)F)c1,HELA MAGI,EC50,-,IIIB,RT-K103N G190A,luciferase,0.016 µM
CCc1c(Sc2cc(C)cc(C)c2)n(COCc2ccccc2)c(=O)[nH]c1=O,CEM,EC50,-,IIIB,Nevirapine resistant (RT Y181C),syncytia,0.1 µM
CC(C)C1=C2[C@H]3CC[C@@H]4[C@@]5(C)CC[C@H](OC(=O)[C@H]6C[C@@H](C(=O)O)C6(C)C)C(C)(C)[C@@H]5CC[C@@]4(C)[C@]3(C)CC[C@@]2([C@@H](O)CN[C@@H](C)c2ccccc2)CC1=O,MT-2,EC50,-,92HT599,-,p24 / ELISA,<1 µM
CN(C)CC1c2nc(C(=O)NCc3ccc(F)cc3)c(O)c(=O)n2CCN1Cc1cocn1,MT-4,EC50,-,-,-,p24,1–10 µM
Cc1cc(C)cc(Cc2c(C(C)C)c(=O)[nH]c(=O)n2COCCO)c1,CEM,EC50,-,IIIB,Nevirapine resistant (RT Y181C),syncytia,2.8 µM
CCN1C(=O)NC(=O)C(C(C)C)C1CC1CC(C)CC(C#N)C1=O,C8166,EC50,-,-,K103N,p24 / ELISA,0.253 µM
CC(C)C1=C2C3CCC4[C@@]5(C)CC[C@H](OC(=O)CC(C)(C)C(=O)O)C(C)(C)C5CC[C@@]4(C)[C@]3(C)CC[C@@]2(NC(=O)NCc2ccncc2)CC1=O,MT-2,EC50,30% human serum,IIIB,-,RT activity,<0.199 µM
CC(C)CN(CCC(O)CN1CCCC[C@H]1C(=O)NC(C)(C)C)S(=O)(=O)c1ccccc1,CEM,EC90,-,IIIB,-,p24,1 µM
Clc1cc(CN2CCCNCCNCCCNCC2)cc(Cl)n1,U87-CD4-CCR3 + U87,EC50,-,HE R3 R5 X4,-,p24,>40 µM
CCc1c(Sc2ccccc2)n(COCc2ccccc2)c(=S)[nH]c1=O,CEM,EC50,-,IIIB,Nevirapine resistant (RT Y181C),syncytia,0.34 µM
CC(C)C1=C2C3CCC4[C@@]5(C)CC[C@H](OC(=O)CC(C)(C)C(=O)O)C(C)(C)C5CC[C@@]4(C)[C@]3(C)CC[C@@]2(NC(=O)NCc2ccccn2)CC1=O,MT-2,EC50,30% human serum,IIIB,-,RT activity,<0.199 µM
CC(C)c1c(Sc2ccccc2)n(COCCO)c(=S)[nH]c1=O,CEM,EC50,-,IIIB,RT-E138K,syncytia,0.15 µM
CC(C)C1=C2C3CCC4[C@@]5(C)CC[C@H](OC(=O)[C@H]6CCC[C@@H](C(=O)O)C6)C(C)(C)C5CC[C@@]4(C)[C@]3(C)CC[C@@]2(N)CC1=O,MT-2,EC50,30% human serum,IIIB,-,RT activity,>1 µM
CCN1c2ncc(CCOc3ccc(NS(=O)(=O)C(F)(F)F)c4ccccc34)cc2C(=O)N(C)c2ccc(F)nc21,C8166,EC50,-,WT,-,p24,<0.1 µM
CCC(C)[C@@H](C(=O)N[C@@H](Cc1ccccc1)[C@H](O)CN(CC1CCCC1)S(=O)(=O)c1ccc(/C=N/O)cc1)N1CCN(Cc2cnccc2C)C1=O,MT-4,EC50,50% human serum,-,-,cytopathic effect / MTT,0.014 µM
CC1(C)CC=C(c2cn(-c3nccc(C(=O)NC4CCC(N5CC6CCC(C5)O6)CC4)n3)c3ccc(F)c([C@H](OC(C)(C)C)C(=O)O)c23)CC1,MT-4,EC50,-,NL4-3,T124N,luminescence,0.0047 µM
COc1ccc(-n2c(=O)c(O)c3n(c2=O)CCN(Cc2ccc(F)cc2)C3=O)cn1,MT-4,EC50,-,-,-,p24,<10 µM
CC(C)c1c(Sc2ccccc2)n(COCCO)c(=O)[nH]c1=O,CEM,EC50,-,IIIB,RT-E138K,syncytia,0.25 µM
CCN1c2ncc(CCOc3ccc(CC(=O)O)c4ccccc34)cc2C(=O)N(C)c2ccc(Cl)nc21,C8166,EC50,-,-,RT-K103N Y181C,p24,<0.1 µM
CC(C)C1=C2[C@H]3CC[C@@H]4[C@@]5(C)CC[C@H](OC(=O)[C@H]6C[C@@H](C(=O)O)C6(C)C)C(C)(C)[C@@H]5CC[C@@]4(C)[C@]3(C)CC[C@@]2([C@@H](O)CN(CCN(C)C)C(=O)c2ccccc2Cl)CC1=O,MT-2,EC50,-,92HT599,-,p24 / ELISA,<1 µM
CC(C)C1=C2[C@H]3CC[C@@H]4[C@@]5(C)CC[C@H](OC(=O)CC(C)(C)C(=O)O)C(C)(C)[C@@H]5CC[C@@]4(C)[C@]3(C)CC[C@@]2(NC(=O)Cc2ccc(F)cc2)CC1=O,MT-2,EC50,30% human serum,IIIB,-,RT activity,<0.199 µM
COc1ccc(S(=O)(=O)N(CC(C)C)CC(O)C(=O)N2CSC[C@H]2C(=O)NC(C)(C)C)cc1,CEM,EC50,-,IIIB,-,p24,<1 µM
CCN1c2ncc(CCOc3ccc(/C=C/C(=O)O)c4ccccc34)cc2C(=O)Nc2c(C)ccnc21,C8166,EC50,-,-,RT-K103N Y181C,p24,<0.1 µM
CC(=O)N(C)CCC1CN(Cc2ccc(F)cc2)C(=O)c2c(O)c(=O)n(C(C)C)c(=O)n21,MT-4,EC50,-,-,-,p24,<10 µM
Cc1cc(CNC(=O)c2nc3n(c(=O)c2O)CCNCC3N(C)C(=O)C(=O)N(C)C)ccc1F,MT-4,EC95,-,-,-,p24,<1 µM
COc1ccc(S(=O)(=O)N(CC(C)C)C[C@@H](O)CCN(CCC2CCCC2)C(=O)O[C@H]2CCOC2)cc1,CEM,EC90,-,IIIB,-,p24,1 µM
CC1(C)c2nc(C(=O)NCc3ccc(F)cc3)c(O)c(=O)n2CCN1CC(N)=O,MT-4,EC95,-,-,-,p24,<1 µM
CC(C)C1=C2[C@H]3CC[C@@H]4[C@@]5(C)CC[C@H](OC(=O)[C@H]6C[C@@H](C(=O)O)C6(C)C)C(C)(C)[C@@H]5CC[C@@]4(C)[C@]3(C)CC[C@@]2(CCNCC(CCCN)NC(=O)c2ccc(Cl)cc2)CC1=O,MT-2,EC50,-,92HT599,-,p24 / ELISA,<1 µM
CC(C)CN(C(=O)C(=O)N(C)C)C1CN(C)CCn2c1nc(C(=O)NCc1ccc(F)cc1)c(O)c2=O,MT-4,EC50,-,-,-,p24,<1 µM
CC(C)c1c(Sc2ccccc2)n(COCc2ccccc2)c(=O)[nH]c1=O,CEM,EC50,-,IIIB,RT-E138K,syncytia,0.02 µM

Repeating the final 6 entries:

| smiles | cells | measure | conditions | strain | changes | read by | result |
|---|---|---|---|---|---|---|---|
| Cc1cc(CNC(=O)c2nc3n(c(=O)c2O)CCNCC3N(C)C(=O)C(=O)N(C)C)ccc1F | MT-4 | EC95 | - | - | - | p24 | <1 µM |
| COc1ccc(S(=O)(=O)N(CC(C)C)C[C@@H](O)CCN(CCC2CCCC2)C(=O)O[C@H]2CCOC2)cc1 | CEM | EC90 | - | IIIB | - | p24 | 1 µM |
| CC1(C)c2nc(C(=O)NCc3ccc(F)cc3)c(O)c(=O)n2CCN1CC(N)=O | MT-4 | EC95 | - | - | - | p24 | <1 µM |
| CC(C)C1=C2[C@H]3CC[C@@H]4[C@@]5(C)CC[C@H](OC(=O)[C@H]6C[C@@H](C(=O)O)C6(C)C)C(C)(C)[C@@H]5CC[C@@]4(C)[C@]3(C)CC[C@@]2(CCNCC(CCCN)NC(=O)c2ccc(Cl)cc2)CC1=O | MT-2 | EC50 | - | 92HT599 | - | p24 / ELISA | <1 µM |
| CC(C)CN(C(=O)C(=O)N(C)C)C1CN(C)CCn2c1nc(C(=O)NCc1ccc(F)cc1)c(O)c2=O | MT-4 | EC50 | - | - | - | p24 | <1 µM |
| CC(C)c1c(Sc2ccccc2)n(COCc2ccccc2)c(=O)[nH]c1=O | CEM | EC50 | - | IIIB | RT-E138K | syncytia | 0.02 µM |